Measured values: patent US20240109955A1 (published 2024)

Molecular target: SARS-CoV-2 Omicron variant B.1.1.529 spike protein (SARS-CoV-2, UniProt P0DTC2 14-1273)
Experiment: cell-based or functional assay

B1: MX1049 (bispecific antibody)
chain: EIVLTQSPGTLSLSPGERATLSCRASQSVSSSYLAWYQQKPGQAPRLLIYSASSRATGIPDRFSGSGSGTDFTLTISRLEPEDFAVYFCQQYVGLTGWTFGQGTKVEIKGGSSGDTVMTQSPLSLPVTPGEPASISCRSSQSLLNSNGYNYLDWYVQKPGQSPQLLIYLGSNRASGVPDRFSGSGSGTDFTLKISRVEAEDVGVYYCMQPLQTPLFTFGPGTKVEIKGGGGSGGSGSGGGGSASGSGQVTLRESGPALVKPTQTLTLTCTFSGFSLSTRGVCVSWIRQPPGKALEWLAFIDWDDDKYYNTSLKTRLTISKDTSKNQVVLTMTNVHPVDTATYYCARISSHHGSSWCTTFDYWGQGALVTVSAGGSSGQMQLVQSGPEVKKPGTSVKVSCKASGFTFTSSAVQWVRQRQRLEWIGWIVVGSGNTNYAQKFQERVTITRDMSTSTAYMELSSLRSEDTAVYYCAAPNCSNVVCYDGFDIWGQGTMVTVSSASGGSGDKTHTCPPCPAPELLGGPSVFLFPPKPKDTLMISRTPEVTCVVVDVSHEDPEVKFNWYVDGVEVHNAKTKPREEQYNSYVVSVLTVLHQDWLNGKEYKCKVSNKALPAPIEKTISKAKGQPREPQVYTLPPSRDELTKNQVSLTCLVKGFYPSDIAVEWESNGQPENNYKTTPPVLDSDGSFFKKLTVDKSRWQQGNVFSCSVLHEALHSHYTQKSLSLSPG
  IC50, pseudovirus neutralization: 3.27 ng/mL
  IC80, pseudovirus neutralization: 7.16 ng/mL
